Anti-infective test results gathered from many reports (values: NIAID ChemDB through PubChem).

All rows: tests in culture; species: HIV-1; read by: p24; endpoint: EC50

Lines come from different laboratories, so protocols vary.

CCc1cc(NCc2nc3c(Cl)ccc(Cl)c3o2)c(=O)[nH]c1C ; strain or isolate: IIIB ; cells: MT-4 ; value: <0.11 µM
Cc1cn([C@H]2C[C@H](N=[N+]=[N-])[C@@H](CO)O2)c(=O)[nH]c1=O ; strain or isolate: GB8 ; cells: JM ; value: 100 µM
Cc1cn([C@H]2C[C@H](N=[N+]=[N-])[C@@H](CO)O2)c(=O)[nH]c1=O ; strain or isolate: LAI ; cells: MT-2 ; changes: RT-D67N K70R T215Y K219Q ; value: 0.14 µM
CSCSc1nc(Cc2cc(C)cc(C)c2)c(C(C)C)c(=O)[nH]1 ; strain or isolate: IIIB ; cells: PBMC ; value: 0.01 µM
CO[C@H]1/C=C/O[C@@]2(C)Oc3c(C)c(O)c4c(c3C2=O)C(=O)C(SCCCCCCCOC(=O)CCCC(=O)OC[C@H]2O[C@@H](n3cc(C)c(=O)[nH]c3=O)C[C@@H]2N=[N+]=[N-])=C(NC(=O)/C(C)=C\C=C\[C@H](C)[C@H](O)[C@@H](C)[C@@H](O)[C@@H](C)[C@H](OC(C)=O)[C@@H]1C)C4=O ; strain or isolate: IIIB ; cells: C8166 ; value: 0.04 µM
O=C1c2ccccc2C(=O)N1CCOC(=S)Nc1ccc(I)cc1 ; strain or isolate: IIIB ; cells: C8166 ; value: <0.04 µM
O=c1cc(-c2ccc(O)c(O)c2)oc2cc(O[C@@H]3O[C@H](CO)[C@@H](O)[C@H](O)[C@H]3OS(=O)(=O)O)cc(O)c12 ; cells: MT-2 ; value: 27 µM
CC1(C)S[C@H]([C@H](NC(=O)Cc2ccccc2)C(=O)NCc2ccccc2)N[C@H]1C(=O)NCCNC(=O)[C@@H]1N[C@@H]([C@H](NC(=O)Cc2ccccc2)C(=O)NCc2ccccc2)SC1(C)C ; strain or isolate: RF ; cells: MT-4 ; value: 0.06 µM
O=c1cc(-c2ccc(O)cc2)oc2cc(O)cc(O)c12 ; strain or isolate: IIIB ; cells: H9 ; value: 9 µg/mL
COc1cc2c(cc1O)[C@@H](Cc1ccc(O)cc1)NCC2 ; strain or isolate: IIIB ; cells: H9 ; value: 0.8 µg/mL
Nc1nc2c(ncn2[C@H]2CO[C@@H](CO)O2)c(=O)[nH]1 ; strain or isolate: LAI ; cells: MT-2 ; value: 0.28 µM
Nc1ccn([C@H]2CC[C@@H](CO)O2)c(=O)n1 ; strain or isolate: IIIB ; cells: H9 ; value: 0.003 µM
COc1cc2c(cc1OC)[C@@H](Cc1ccc(O)c(Oc3cc4c(cc3OC)CCN(C)[C@@H]4Cc3ccc(O)cc3)c1)N(C)CC2 ; strain or isolate: IIIB ; cells: H9 ; value: <0.8 µg/mL
CC1(C)C2=CC(=O)C(O)(c3ccccc3)C(=O)N2c2ccc(Cl)cc21 ; strain or isolate: CC15 ; cells: PBMC/1(CC15) + PBMC ; value: 0.01 µM
COc1ccc(C[C@@H]2c3cc(Oc4cc(C[C@@H]5c6cc(O)c(OC)cc6CCN5C)ccc4O)c(OC)cc3CCN2C)cc1 ; strain or isolate: IIIB ; cells: H9 ; value: <0.8 µg/mL
COC(=O)[C@@H](NC(=O)Cc1ccccc1)[C@@H]1N[C@@H](C(=O)NCCNC(=O)[C@@H]2N[C@@H]([C@H](NC(=O)Cc3ccccc3)C(=O)OC)SC2(C)C)C(C)(C)S1 ; strain or isolate: RF ; cells: MT-4 ; value: >100 µM
Nc1ccn([C@H]2CC[C@@H](CO)O2)c(=O)n1 ; strain or isolate: IIIB ; cells: H9 ; value: 0.045 µg/mL
CO[C@H]1/C=C/O[C@@]2(C)Oc3c(C)c(O)c4c(c3C2=O)C(=O)C(SCCOC(=O)CCC(=O)OC[C@H]2O[C@@H](n3cc(C)c(=O)[nH]c3=O)C[C@@H]2N=[N+]=[N-])=C(NC(=O)/C(C)=C\C=C\[C@H](C)[C@H](O)[C@@H](C)[C@@H](O)[C@@H](C)[C@H](OC(C)=O)[C@@H]1C)C4=O ; strain or isolate: IIIB ; cells: C8166 ; value: 0.04 µM
CC(C)(C)NC(=O)[C@@H]1C[C@@H]2CCCC[C@@H]2CN1C[C@@H](O)[C@H](Cc1ccccc1)NC(=O)[C@H](CC(N)=O)NC(=O)c1ccc2ccccc2n1 ; strain or isolate: NL4-3 ; cells: PBMC ; value: 0.025 µM
COc1ccc(-c2cc(=O)c3c(O)cc(O[C@@H]4O[C@H](CO)[C@H](O)[C@H](O)[C@H]4O)cc3o2)cc1 ; strain or isolate: IIIB ; cells: H9 ; value: 8 µg/mL
S=C(NCCc1ccccn1)Nc1ccc(Br)cn1 ; strain or isolate: IIIB ; cells: C8166 ; value: <0.015 µM
Cc1cn([C@H]2C[C@H](N=[N+]=[N-])[C@@H](CO)O2)c(=O)[nH]c1=O ; strain or isolate: 8848 CLADE C CLADE C ; cells: PBMC ; value: 0.033 µM
CC(C)(O)c1cccc(CN2C(=O)N(Cc3cccc(C(C)(C)O)c3)[C@H](Cc3ccccc3)[C@H](O)[C@@H](O)[C@H]2Cc2ccccc2)c1 ; strain or isolate: HXB2 ; cells: MT-2/MT-4 + MT-2 ; value: <0.0222 µM
CC(C)(C)OC(=O)N[C@@H](Cc1ccccc1)[C@@H](O)C[C@@H](Cc1ccc(OCCN2CCOCC2)cc1)C(=O)N[C@H]1c2ccccc2C[C@H]1O ; strain or isolate: NL4-3 ; cells: MT-4 ; value: 0.01 µM
CO[C@H]1/C=C/O[C@@]2(C)Oc3c(C)c(O)c4c(c3C2=O)C(=O)C(SCCOC(=O)CCC(=O)OC[C@H]2O[C@@H](n3cc(C)c(=O)[nH]c3=O)C[C@@H]2N=[N+]=[N-])=C(NC(=O)/C(C)=C\C=C\[C@H](C)[C@@H]2OC(C)(C)O[C@@H]([C@@H](C)[C@H](OC(C)=O)[C@@H]1C)[C@@H]2C)C4=O ; strain or isolate: IIIB ; cells: C8166 ; value: 0.04 µM
O=c1[nH]cnc2c1ncn2[C@H]1CC[C@@H](CO)O1 ; strain or isolate: BaL ; cells: PBL ; value: 3.7 µM
O=c1c(O[C@@H]2O[C@H](CO)[C@H](O)[C@H](O)[C@H]2O[C@@H]2OC[C@@H](O)[C@H](O)[C@H]2O)c(-c2ccc(O)c(O)c2)oc2cc(O)cc(O)c12 ; strain or isolate: IIIB ; cells: H9 ; value: 4 µg/mL
O=C1c2ccccc2C(=O)N1CCOC(=S)Nc1ccc(Cl)cc1 ; strain or isolate: IIIB ; cells: C8166 ; value: <0.04 µM
NC(=O)[C@H](Nc1ccccc1[N+](=O)[O-])c1c(Cl)cccc1Cl ; strain or isolate: IIIB ; value: 0.013 µg/mL
N#Cc1ccc(NC(=S)OCCN2C(=O)c3ccccc3C2=O)cc1 ; strain or isolate: IIIB ; cells: C8166 ; value: <0.1 µM
COc1cc2c(cc1OCc1ccccc1)C(Cc1ccc(Cl)cc1)N(Cc1ccccc1)CC2 ; strain or isolate: IIIB ; cells: H9 ; value: 3.2 µg/mL

For reference, 2 entries again:

| SMILES | strain or isolate | cells | changes | value |
|---|---|---|---|---|
| Nc1ccn([C@H]2CC[C@@H](CO)O2)c(=O)n1 | IIIB | H9 |  | 0.045 µg/mL |
| CO[C@H]1/C=C/O[C@@]2(C)Oc3c(C)c(O)c4c(c3C2=O)C(=O)C(SCCOC(=O)CCC(=O)OC[C@H]2O[C@@H](n3cc(C)c(=O)[nH]c3=O)C[C@@H]2N=[N+]=[N-])=C(NC(=O)/C(C)=C\C=C\[C@H](C)[C@@H]2OC(C)(C)O[C@@H]([C@@H](C)[C@H](OC(C)=O)[C@@H]1C)[C@@H]2C)C4=O | IIIB | C8166 |  | 0.04 µM |

ECn: concentration that inhibits the pathogen or its effect by n%. Blank or dashed fields: not listed here.